Tested on: E. coli DH10B carrying pTU689 (PenI)
Assay: Broth microdilution MIC, isogenic E. coli producing PenI
Settings: relative to vector control

In the case of CC(C)(O/N=C(\C(=O)N[C@@H]1C(=O)N2C(C(=O)[O-])=C(C[n+]3ccccc3)CS[C@H]12)c1csc(N)n1)C(=O)O, the “increase of MIC by expression of wild-type blaPenI” value is reported as over 100 fold.
In the case of CO/N=C(\C(=O)N[C@@H]1C(=O)N2C(C(=O)[O-])=C(C[N+]3(C)CCCC3)CS[C@H]12)c1csc(N)n1, the “increase of MIC by expression of wild-type blaPenI” value is reported as over 100 fold.
